Measured values as given in PMC5724010 (The Journal of Biological Chemistry, 2017).

The substances below were run on FplA (assay: Lipid-binding assay, phosphoinositides spotted onto PVDF). Conditions: freshly prepared PI library spotted 0 to 200 pmol on PVDF; Fig. 9.
phosphoinositide 3,4,5-trisphosphate was tested, and the “Binding of FplA to lipid” value was “even stronger affinity”.
For phosphoinositide 3,5-bisphosphate, the “Binding of FplA to lipid” value was “even stronger affinity”.
phosphoinositide 4,5-bisphosphate was tested, and the “Binding of FplA to lipid” value was “preferentially bind”.
